# Data: patent US12076390 (Dana-Farber, dated 2024)
# Read-outs that look alike come from different tables or passages of the source.
# How the values were obtained:
# [1] = target: T1, Recombinant full length HA of H3 A/Perth/16/09 (H3-PE09) (influenza A virus A/Perth/16/09 (H3N2))
# [2] = target: T1, Recombinant full length HA of H3 …; assay: BLI (Octet RED96), IgG1, recombinant HA
binder,measurement,setting,value
"3I14 VLD94N IgG1 (antibody, V domains shown) VH: QVQLLESGGGVVQPGRSLRLSCAASGFTFSNYGMHWVRQAPGKGLEWVAIISFDGSKKYYANSVKGRSTISRDNSKNTLSLQMNSLGPEDTALYYCAKLPSPYYFDSRFVWVAASAFHFWGQGILVTVSS VL: NFMLTQPPSASGTPGQRVTISCSGSSSNIGGNTVHWFQQLPGTAPKLLIYTNSLRPSGVPDRFSGSKSGTSASLAISGLQSEDEADYYCAAWDNSLNGQVFGGGTKLTVL",koff,[1],0.000173 s⁻¹
same,kon,[1],74100 M⁻¹ s⁻¹
same,koff,[2],5.44e-05 s⁻¹
same,kon,[2],177000 M⁻¹ s⁻¹
